Source: patent publication US9956260

Target: HIV-1 gp41 of GIA-SKY (T20-dependent virus) (HIV-1 (NL4-3 mutant))
Test: cell-based or functional assay

enfuvirtide (T20) (peptide)
indirect CD4 T-cell killing (viable CFSE-positive CD4 T-cells): 1 µg/mL | viral replication in HLACs (p24gag FLAQ assay): 1 µg/mL
